A mixed list of measured activities; the numbers were collected in NIAID ChemDB.

Shared fields: growth or infection tests; agent: Candida albicans; measure: inhibition

Conditions beyond the fields shown may differ between rows. Percent inhibition refers to the dose given; in toxicity tests it is the harm to the cells. Blank or dashed fields: not listed here.

CCCCCSc1nc2ccc(N)cc2s1 ; dose: 100 µM ; strain or isolate: IEM 49/64 ; result: ≥70%
Clc1ccc(COC(Cn2ccnc2)c2ccc(Cl)cc2Cl)cc1 ; dose: 10 µg/mL ; strain or isolate: 75 strains ; method: agar diffusion / agar ; result: 35%
CCC[CH2][Sn]([CH2]CCC)([NH]c1ccccc1C(=O)O)[O]C(=O)c1ccccc1N ; dose: 20 µg/mL ; strain or isolate: ATCC 18804 ; method: broth dilution ; result: 95%
Oc1ccc(/C=C/c2cc(O)cc(O)c2)cc1 ; dose: 400 µg/mL ; strain or isolate: CAI.4 ; result: <20%
CC(N1CCN(c2ccc(-n3cnnn3)cc2)C1=O)[C@](O)(Cn1cncn1)c1ccc(F)cc1F ; dose: 2 µg/mL ; strain or isolate: Clinical isolates ; result: 90%
CCCCCCCCC/C=C\C(=O)O ; dose: 300 µM ; strain or isolate: SC5314 ; method: XTT ; result: 90%
c1ccc2c(c1)-c1nccc3ccnc-2c13 ; dose: 12.5 µg/mL ; strain or isolate: B311 ; result: 80%
C[C@H]1[C@H](O)[C@@H](C)/C=C/C=C/C=C/C=C/C=C/C=C/C=C/[C@H](O[C@@H]2O[C@H](C)[C@@H](O)[C@H](N)[C@@H]2O)C[C@@H]2O[C@](O)(C[C@@H](O)C[C@@H](O)CC[C@H](O)[C@@H](O)C[C@@H](O)CC(=O)O[C@H]1C)C[C@H](O)[C@H]2C(=O)O ; dose: 0.4 µg/mL ; strain or isolate: 20 isolates ; result: 50%
CCOC(=O)C1C(c2ccc(Cl)cc2)CC(c2ccccc2)=CC12NCCN2 ; dose: 200 µg/mL ; result: 0%
Nc1c(Br)cc(Br)cc1CNC1CCC(O)CC1 ; dose: 2000 µg/mL ; strain or isolate: NCCLS67/ ATCC 90029 ; method: MTT ; result: 90%
C[C@H]1[C@H](O)[C@@H](C)/C=C/C=C/C=C/C=C/C=C/C=C/C=C/[C@H](O[C@@H]2O[C@H](C)[C@@H](O)[C@H](N)[C@@H]2O)C[C@@H]2O[C@](O)(C[C@@H](O)C[C@@H](O)CC[C@H](O)[C@@H](O)C[C@@H](O)CC(=O)O[C@H]1C)C[C@H](O)[C@H]2C(=O)O ; dose: 0.54 µM ; strain or isolate: ATCC 44859 ; method: broth dilution ; result: 80%
C[C@@H]1[C@H](O)[C@@H](C)/C=C/C=C/CC/C=C/C=C/C=C/C=C/C(O[C@H]2O[C@H](C)[C@@H](O)[C@H](N)[C@@H]2O)CC2O[C@](O)(CC(O)C(O)CCC(O)CC(O)CC(O)CC(=O)O[C@H]1C)CC(O)C2C(=O)O ; dose: 10 µg/mL ; strain or isolate: 75 strains ; method: agar diffusion / agar ; result: 67%
CC1(C)CCC[C@]2(C)[C@H]3C=C4C(=CC(=O)C(O)=C4Cl)O[C@@]3(C)CC[C@@H]12 ; dose: 20 µg/mL ; strain or isolate: ATCC 90028 ; result: 0%
CC(=O)N1CCN(c2ccc(OC[C@H]3CO[C@](Cn4ccnc4)(c4ccc(Cl)cc4Cl)O3)cc2)CC1 ; dose: 15 µg/mL ; strain or isolate: 75 strains ; method: agar diffusion / agar ; result: 48%
C[C@H]1[C@H](O)[C@@H](C)/C=C/C=C/C=C/C=C/C=C/C=C/C=C/[C@H](O[C@@H]2O[C@H](C)[C@@H](O)[C@H](N)[C@@H]2O)C[C@@H]2O[C@](O)(C[C@@H](O)C[C@@H](O)CC[C@H](O)[C@@H](O)C[C@@H](O)CC(=O)O[C@H]1C)C[C@H](O)[C@H]2C(=O)O ; dose: 3.1 µg/mL ; strain or isolate: ATCC 64549 ; result: >99.9%
CC(C)[C@H](NC(=O)[C@H](Cc1ccccc1)NC(=O)[C@H](CCCCN)NC(=O)CN)C(N)=O ; dose: 100 µM ; method: colony count ; result: 5%

2 of the rows above, restated:

SMILES | dose | strain or isolate | method | result
CC(=O)N1CCN(c2ccc(OC[C@H]3CO[C@](Cn4ccnc4)(c4ccc(Cl)cc4Cl)O3)cc2)CC1 | 15 µg/mL | 75 strains | agar diffusion / agar | 48%
CC(C)[C@H](NC(=O)[C@H](Cc1ccccc1)NC(=O)[C@H](CCCCN)NC(=O)CN)C(N)=O | 100 µM |  | colony count | 5%